# Test results from paper PMC5900758.
# Columns and labels:
# CC(=O)C(=O)O = assay: purified protein; conditions: pH 7.4; 30.0 °C
# O=C(O)C[C@H](O)C(=O)O = assay: purified protein; conditions: pH 7.4; 30.0 °C
substance,measurement,setting,value
Mtb MEZ (malic enzyme) (Mycobacterium tuberculosis H37Rv),K0.5,CC(=O)C(=O)O,91.98 ± 6.73 mM
same,kcat,CC(=O)C(=O)O,86.2 s⁻¹
same,K0.5,O=C(O)C[C@H](O)C(=O)O,18.86 ± 0.52 mM
same,kcat,O=C(O)C[C@H](O)C(=O)O,2120 s⁻¹
